PubChem BioAssay AID624099 – ICCB-Longwood | 2012
Here is one part, drawn at random, of about 21,000 reagents tested. 497 of all reagents (2.4%) count as active. 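Higher z means weaker E2 silencing; only reporter increases were scored, and knock-downs that hurt cell survival may mask genuine repressor factors.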 Unmarked entries are inactive. Reagents against one gene are numbered here.

- Screen: 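Knock-downs relieving repression by E2 of an HPV18 LCR luciferase reporter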 (primary screen)
- Cell system: human C33A cervical carcinoma cells (HPV-negative) stably expressing BPV1 E2 and an HPV18 LCR luciferase reporter
- Reagents: siRNA pool against human genes, 40 nM
- Time to read-out: 72 h
- Detection: 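Per-well luciferase luminescence, z-scored on each plate against the plate mean and SD with control wells left out, then averaged across three replicate plates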
- Scale: mean z-score and z-score: higher = stronger reporter signal, weaker E2 silencing
- Active means: 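Mean z ≥ 2 together with z ≥ 2 in two or more of the three replicates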

gene knocked down	reagent	mean z-score	z-score, replicate A	z-score, replicate B	z-score, replicate C
PCDHB11 (protocadherin beta 11)	1	-0.39	-0.31	-0.4	-0.46
ZBTB11 (zinc finger and BTB domain containing 11)	1	0.62	0.67	0.84	0.34
PRAME (PRAME nuclear receptor transcriptional regulator)	1	1.57	1.86	1.41	1.42
GPRIN3 (GPRIN family member 3)	1	0.45	0.39	0.54	0.41
MFHAS1 (multifunctional ROCO family signaling regulator 1)	1	0.08	0	0.2	0.04
ZNF254 (zinc finger protein 254)	1	-0.38	-0.32	-0.44	-0.39
ZNF254 (zinc finger protein 254)	2	1.05	1.29	0.95	0.91
C9orf50 (chromosome 9 open reading frame 50)	1	1.89	1.95	1.7	2.03
ETFBKMT	1	-1.1	-0.92	-0.94	-1.45
ZCCHC4 (zinc finger CCHC-type containing 4)	1	-0.22	-0.64	-0.38	0.34
KLK9 (kallikrein related peptidase 9)	1	1	0.74	1.15	1.11
TMED6 (transmembrane p24 trafficking protein 6)	1	-0.65	-0.25	-1.08	-0.62
CPT1A (carnitine palmitoyltransferase 1A)	1	0.3	-0.32	0.52	0.7
MMP2 (matrix metallopeptidase 2)	1	0.02	0.16	0	-0.08
DIAPH1 (diaphanous related formin 1)	1	-0.41	-0.71	0.02	-0.54
MTSS1 (MTSS I-BAR domain containing 1)	1	-0.07	-0.12	-0.07	-0.02
CLCA4 (chloride channel accessory 4)	1	1.14	0.93	1.34	1.16
CDK18 (cyclin dependent kinase 18)	1	-0.21	-0.06	-0.42	-0.14
CHDH (choline dehydrogenase)	1	-0.69	-0.45	-0.86	-0.76
KCNK16 (potassium two pore domain channel subfamily K member 16)	1	0.28	0.14	0.56	0.14
IQCF1 (IQ motif containing F1)	1	-1.91	-1.84	-1.94	-1.93
FAAP24 (FA core complex associated protein 24)	1	0.55	0.74	0.18	0.72
LGALS13 (galectin 13)	1	-0.15	0.23	-0.13	-0.57
RABL3 (RAB, member of RAS oncogene family like 3)	1	0.56	0.58	0.58	0.53
UGGT1 (UDP-glucose glycoprotein glucosyltransferase 1)	1	0.27	0.78	0.29	-0.27
BAHD1 (bromo adjacent homology domain containing 1)	1	-0.76	-0.83	-0.62	-0.82
GNAO1 (G protein subunit alpha o1)	1	0.25	0.49	0	0.27
UBIAD1 (UbiA prenyltransferase domain containing 1)	1	0.35	0.41	0.39	0.23
SPR (sepiapterin reductase)	1	0.46	0.21	0.54	0.63
LOC387915 (retired record)	1	1.59	1.31	1.78	1.67
MFAP4 (microfibril associated protein 4)	1	-0.18	0.09	-0.46	-0.18
BRAT1 (BRCA1 associated ATM activator 1)	1	-0.15	-0.42	-0.15	0.13
NDUFAF2P1 (NDUFAF2 pseudogene 1)	1	-0.73	-0.84	-0.88	-0.47
RECQL4 (RecQ like helicase 4)	1	0.16	0.45	0.19	-0.15
METTL5 (methyltransferase 5, N6-adenosine)	1	-0.33	-0.6	-0.62	0.23

The list goes on; the last 4 above are carried over.
gene knocked down	reagent	mean z-score	z-score, replicate A	z-score, replicate B	z-score, replicate C
BRAT1 (BRCA1 associated ATM activator 1)	1	-0.15	-0.42	-0.15	0.13
NDUFAF2P1 (NDUFAF2 pseudogene 1)	1	-0.73	-0.84	-0.88	-0.47
RECQL4 (RecQ like helicase 4)	1	0.16	0.45	0.19	-0.15
METTL5 (methyltransferase 5, N6-adenosine)	1	-0.33	-0.6	-0.62	0.23
CMTM8 (CKLF like MARVEL transmembrane domain containing 8)	1	0.24	0.22	0.26	0.26
CD53 (CD53 molecule)	1	0.17	0.33	0	0.17
ZNF300P1 (zinc finger protein 300 pseudogene 1)	1	-0.36	-0.15	-0.19	-0.76
LOC400708 (retired record)	1	-0.17	0.12	-0.29	-0.35
AUTS2 (activator of transcription and developmental regulator AUTS2)	1	2.04 (active)	2.34	2.08	1.7
DEPDC1B (DEP domain containing 1B)	1	0.21	0.22	0.38	0.03
ALG3 (ALG3 alpha-1,3- mannosyltransferase)	1	-1.08	-0.93	-1.37	-0.92
FMN1 (formin 1)	1	-0.34	-0.23	-0.1	-0.68
TEX46 (testis expressed 46)	1	1.23	1.67	1.01	1
NDUFAF7 (NADH:ubiquinone oxidoreductase complex assembly factor 7)	1	0.1	0.52	-0.12	-0.09
PPM1A (protein phosphatase, Mg2+/Mn2+ dependent 1A)	1	-0.32	-0.29	-0.25	-0.4
C16orf86 (chromosome 16 open reading frame 86)	1	-0.3	-0.02	-0.39	-0.5
H2BC7 (H2B clustered histone 7)	1	-1.12	-1.16	-1	-1.21
NFKBIE (NFKB inhibitor epsilon)	1	0.95	1.27	0.94	0.63
ERN1 (endoplasmic reticulum to nucleus signaling 1)	1	0.79	0.91	0.67	0.77
CEP55 (centrosomal protein 55)	1	0.71	0.64	0.92	0.58
SLC41A2	1	-0.05	0.13	-0.14	-0.13
DEUP1 (deuterosome assembly protein 1)	1	0.35	0.69	0.03	0.33
SLC45A1	1	-0.61	-0.46	-0.95	-0.44
AIF1 (allograft inflammatory factor 1)	1	0.92	0.59	1.27	0.91
IRAG2 (inositol 1,4,5-triphosphate receptor associated 2)	1	0.43	0.57	0.28	0.43
UGT1A3 (UDP glucuronosyltransferase family 1 member A3)	1	1.5	1.05	1.78	1.68
